# From paper PMC7190985 (Frontiers in Microbiology, 2020)
# Where two headings read alike, the source gives them in different places.
# Experiments:
# [1] = system: VACV-WR-GFP virus; experiment: Viral spread assay (VACV-WR-GFP, HeLa cells, 24 h, GFP imaging); type: cell-based, vaccinia virus
# [2] = system: VACV WR A4-YFP; experiment: Confocal imaging of virus-loaded actin tails (BSC40 cells); type: cell-based, vaccinia virus; settings: 10 μM, 24 h, MOI 1
# [3] = system: VACV WR-Luc virus; settings: 2 h at 37°C
smiles,measurement,setting,value
O=C1CN(C(=O)c2nccs2)C(c2ccccc2)c2cc(Cl)ccc2N1 (centres unmarked),IC50,[1],700 nM
same,IC90,[1],1700 nM
same,virus-loaded actin tails per cell,[2],significant decrease in virus-loaded tails
same,viral entry (luciferase RLU),[3]; 10 μM,reduced viral entry
same,viral entry (luciferase RLU),[3]; lower concentrations tested (2.5 and 5 μM),did not markedly decrease viral entry
